System: TNF-α
Test: SEB-induced TNF-alpha induction in human lymphoid cells
Assay type: cell-based
Conditions: PKC inhibitors, dose 10 uM

In the case of COc1ccc2c(c[n+](C)c3c4cc5c(cc4ccc23)OCO5)c1OC [Chelerythrine], the “effect on production of eicosanoids and neuropeptides” value is reported as “blocked production of eicosanoids and neuropeptides”.

Source: patent US20050272055A1 (priority 2000, published 2005)
